A mixed list of measured activities; the numbers were collected in NIAID ChemDB.

Common to all: cytotoxicity tests; cell line: HEL; endpoint: CC50

Blank or dashed fields: not listed here. CCn is the concentration with n% toxicity to the cells. Rows are shuffled and stem from different studies.

smiles | read by | value
O=c1[nH]cnc2c1ncn2CCOCP(=O)(O)O |  | >400 µg/mL
Nc1nccc2c1ncn2[C@@H]1C=C(CO)[C@@H](O)[C@H]1O |  | 125 µg/mL
COc1cccc(O)c1O |  | 93 µg/mL
Nc1nccc2c1ncn2[C@@H]1C=C[C@@H](O)[C@H]1O |  | 13.5 µg/mL
Nc1ncnc2c1ncn2C[C@H]1COP(=O)(O)CO1 |  | 130 µM
Nc1nc2c(ncn2CCC(CO)CO)c(=O)[nH]1 | MTS | >750 µM
CC(C)NCC(O)c1ccc(O)c(O)c1 |  | ≥200 µg/mL
CC(C)COC(=O)C(O)Cn1cnc2c(N)ncnc21 |  | 120 µg/mL
O=c1[nH]c(=O)n([C@H]2C[C@H](O)[C@@H](CO)S2)cc1C1CC1 |  | >200 µM
CCCCCCCCCCCCCCCCOCCOP1(=O)CO[C@@H](Cn2cnc3c(N)nc(N)nc32)CO1 |  | 30 µM
Cc1cn(C[C@@H](CO)OCP(=O)(O)O)c(=O)[nH]c1=O |  | >400 µg/mL
Nc1ncnc2c1ncn2[C@@H]1O[C@H](CO)[C@@H](O)[C@@H]1O |  | 120 µM
Nc1ncnc2c1ncn2[C@@H]1C=C[C@@H](O)[C@H]1O |  | 86 µg/mL
Nc1nc2c(ncn2C2C[C@H](O)[C@@H](O)C2)c(=O)[nH]1 |  | 196 µg/mL
Nc1nc2c(ncn2C[C@]2(CO)C[C@H]2CO)c(=O)[nH]1 | MTS | >175 µM
Nc1ncnc2c1ccn2[C@H]1C[C@H](O)[C@@H](CO)O1 |  | 74 µM
CCCCOC(=O)c1ccccc1OP1(=O)CO[C@@H](Cn2cnc3c(N)nc(N)nc32)CO1 |  | 168 µM
CC(=O)N(O)CCCCCNC(=O)CCC(=O)N(O)CCCCCNC(=O)CCC(=O)N(O)CCCCCN |  | 6.37 µg/mL
Nc1ncnc2c1ncn2CCOCP(=O)(O)O |  | 100 µg/mL
Nc1ncnc2c1ncn2[C@@H]1C=C(CO)[C@@H](O)[C@H]1O |  | 21 µg/mL
Nc1nc2c(ncn2CC(CO)OCP(=O)(O)O)c(=O)[nH]1 |  | 10 µg/mL
O=c1[nH]c(=O)n([C@H]2C[C@H](O)[C@@H](CO)O2)cc1/C=C/Br |  | >200 µg/mL
CCc1cn([C@@H]2O[C@H](CO)[C@@H](O)[C@@H]2O)c(=O)[nH]c1=O |  | >588 µM
Nc1cc(OC[C@H](CO)OCP(=O)(O)O)nc(N)n1 | MTS | 54 µM
O=c1[nH]c(=O)n([C@@H]2O[C@H](CO)[C@@H](O)[C@@H]2O)cc1I |  | >423 µM
Nc1nc2c(ncn2CCOCP(=O)(O)O)c(=O)[nH]1 |  | 2.5 µg/mL
CC#Cc1cn([C@H]2C[C@H](O)[C@@H](CO)O2)c(=O)[nH]c1=O |  | 312 µM
O=C(O)c1cc(O)c(O)c(O)c1 |  | 100 µg/mL
O=c1[nH]c(=O)n(C2CC(O)C(CO)O2)cc1/C=C/Br |  | 201 µM
O=C(O)/C=C/c1ccc(O)c(O)c1 |  | 46 µg/mL
Nc1ncnc2c1ncn2CCOCP(=O)(O)O |  | 100 µg/mL
Nc1ncc2c(ncn2COC(CO)CO)n1 |  | 418 µM
C[C@H](N)C(=O)OCP(=O)(OC[C@H]1O[C@@H](n2cc(/C=C/Br)c(=O)[nH]c2=O)C[C@@H]1O)Oc1ccccc1 |  | 51.7 µM
O=c1[nH]cnc2c1ncn2C[C@@H](CO)OCP(=O)(O)O |  | >400 µg/mL
Nc1nc(N)c2ncn(C[C@H]3CC[C@@H](CO)C3)c2n1 |  | 100 µg/mL
O=c1[nH]c(=O)n([C@H]2C[C@H](O)[C@@H](CO)O2)cc1C1CCCCC1 |  | >150 µM
CCCCCCCCCCCCCCCCOCCOP1(=O)CO[C@@H](Cn2cnc(N)nc2=O)CO1 |  | 6.4 µg/mL
Nc1nc(N)c2ncn(CCOCP(=O)(O)O)c2n1 |  | 40 µg/mL
c1ccc(-c2ccccn2)nc1 |  | 10.47 µg/mL
Nc1ncnc2c1ncn2[C@H]1[C@H](O)[C@H](O)[C@@H](CO)[C@H]1F |  | 0.038 µg/mL
C[C@@]1(CO)[C@H](O)CC[C@@]2(C)[C@H]1CCC1C[C@@H]3CC12CC[C@]3(O)COC(=O)CCC(=O)O |  | >45 µg/mL
Nc1ncnc2c1ncn2C1C[C@H](O)[C@@H](O)C1 |  | 110 µg/mL
O=c1[nH]c(=O)n([C@H]2C[C@H](O)[C@@H](CO)S2)cc1C1CCCC1 |  | >150 µM
Nc1nccc2c1ncn2[C@@H]1O[C@H](CO)[C@@H](O)[C@H]1O |  | >200 µg/mL
CCOC(=O)c1ccc(O)c(O)c1 |  | ≥200 µg/mL
Cc1cn([C@@H]2O[C@H](CO)[C@@H](O)[C@@H]2O)c(=O)[nH]c1=O |  | 232 µM
Nc1cc(OC[C@@H](CO)OCP(=O)(O)O)nc(N)n1 | MTS | 170 µM
O=C(O)Cc1cc(O)ccc1O |  | 130 µg/mL
Nc1nc(Cl)c2nnn(C[C@H]3CC[C@@H](CO)C3)c2n1 |  | 100 µg/mL
O=c1ccn(CC(CO)OCP(=O)(O)O)c(=O)[nH]1 |  | >400 µg/mL
O=c1[nH]c(=O)n([C@@H]2O[C@H](CO)[C@@H](O)[C@H]2O)cc1/C=C/Br |  | 292 µM
O=c1cc(-c2ccc(O)c(O)c2)oc2cc(O)cc(O)c12 |  | 62 µM
O=C(O)c1ccc(O)c(O)c1 |  | 200 µg/mL
Nc1ccn(C[C@@H](CO)OCP(=O)(O)O)c(=O)n1 |  | 100 µg/mL
CCc1cn([C@H]2C[C@H](O)[C@@H](CO)S2)c(=O)[nH]c1=O |  | ≥200 µM
Nc1ncc2c(ncn2COC(CO)CO)n1 | MTS | >400 µM
Nc1ncnc2c1ncn2[C@@H]1O[C@H](CO)[C@H]1CO |  | 498 µM
CCc1cn([C@H]2C[C@H](O)[C@@H](CO)O2)c(=O)[nH]c1=O |  | ≥200 µM
Nc1ncnc2c1ncn2C[C@@H](CO)OCP(=O)(O)O | MTS | 12 µM
CCCCCCCCCCCCCCCCOCCCOP1(=O)CO[C@@H](Cn2cnc3c(N)nc(N)nc32)CO1 |  | 13.7 µM
O=C(O)/C=C/c1ccc(O)c(O)c1.O=C(O)CCc1ccc(O)c(O)c1 |  | 76 µg/mL
Cc1cn([C@H]2C[C@H](O)[C@@H](CO)O2)c(=O)[nH]c1=O |  | >200 µM
O=C(O)P(=O)(O)O | MTS | 500 µM
C[C@@H]1C[C@@H](n2cnc3c(N)ncnc32)[C@H](O)[C@@H]1O |  | 200 µg/mL
O=c1[nH]c(=O)n([C@@H]2O[C@H](CO)[C@@H](O)[C@@H]2O)cc1C=C(Br)Br |  | >376 µM
Nc1ncnc2c1ncn2C[C@@H](CO)OCP(=O)(O)O |  | >70 µg/mL
Nc1nc2c(ncn2C[C@H]2CC[C@@H](CO)C2)c(=O)[nH]1 |  | 80 µg/mL
Nc1ccn([C@@H]2O[C@H](CO)[C@@H](O)[C@@H]2O)c(=O)n1 |  | 0.2 µM
CCCc1cn([C@H]2C[C@H](O)[C@@H](CO)S2)c(=O)[nH]c1=O |  | >200 µM
Nc1ccn(C[C@@H](CO)OCP(=O)(O)O)c(=O)n1 |  | 100 µg/mL

Repeating the first 4 entries:

smiles	read by	value
O=c1[nH]cnc2c1ncn2CCOCP(=O)(O)O		>400 µg/mL
Nc1nccc2c1ncn2[C@@H]1C=C(CO)[C@@H](O)[C@H]1O		125 µg/mL
COc1cccc(O)c1O		93 µg/mL
Nc1nccc2c1ncn2[C@@H]1C=C[C@@H](O)[C@H]1O		13.5 µg/mL